Tested on: Pyricularia oryzae
Experiment: Example D: Pyricularia test (rice)/induction of resistance
Conditions: 500 ppm, rice plants, induction of resistance, inoculation 4 days after treatment, evaluation 7 days after inoculation

CC(C)(Cc1ccc(SC(F)(F)F)cc1)C(C)(O)Cc1cncs1 (stereo not shown)
Efficacy (%): 70%
